According to ChEMBL document CHEMBL2424540, “Synthesis and pharmacological evaluation of novel 1-(piperidin-4-yl)-1H-benzo[d]imidazol-2(3H)-one derivatives as potential antimicrobial agents” (2013):
Only a part of the results on these compounds is given; other tests are left out.

Legend:
[1] = test system: Candida albicans; test: Antifungal activity against Candida albicans MTCC 227 at 50 mg/ml after 24 hrs by disk agar diffusion technique
[2] = test system: Streptococcus pyogenes; test: Antibacterial activity against Streptococcus pyogenes MTCC 442 at 50 mg/ml after 24 hrs by disk agar diffusion technique
[3] = test system: Aspergillus clavatus; test: Antifungal activity against Aspergillus clavatus MTCC 1323 at 50 mg/ml after 24 hrs by disk agar diffusion technique
[4] = test system: Pseudomonas aeruginosa; test: Antibacterial activity against Pseudomonas aeruginosa MTCC 424 at 50 mg/ml after 24 hrs by disk agar diffusion technique
[5] = test system: Staphylococcus aureus; test: Antibacterial activity against Staphylococcus aureus MTCC 96 at 50 mg/ml after 24 hrs by disk agar diffusion technique
[6] = test system: Escherichia coli; test: Antibacterial activity against Escherichia coli MTCC 443 at 50 mg/ml after 24 hrs by disk agar diffusion technique

| Compound | diameter of the inhibition zone (DIZ) [1] | diameter of the inhibition zone (DIZ) [2] | diameter of the inhibition zone (DIZ) [3] | diameter of the inhibition zone (DIZ) [4] | diameter of the inhibition zone (DIZ) [5] | diameter of the inhibition zone (DIZ) [6] |
| --- | --- | --- | --- | --- | --- | --- |
| CCn1c(=O)n(C2CCN(C3CCc4cc(OC)c(OC)cc43)CC2)c2ccc(Cl)cc21 (centres undefined) | 19 mm | 16 mm | 18 mm | 10 mm | 19 mm | 13 mm |
| CCCCn1c(=O)n(C2CCN(C3CCc4cc(OC)c(OC)cc43)CC2)c2ccc(Cl)cc21 (centres undefined) | 19 mm | 14 mm | 24 mm | 11 mm | 15 mm | 11 mm |
| COc1cc2c(cc1OC)C(N1CCC(n3c(=O)n(CC(C)C)c4cc(Cl)ccc43)CC1)CC2 (centres undefined) | 17 mm | 12 mm | 14 mm | 12 mm | 12 mm | 13 mm |
| CCCn1c(=O)n(C2CCN(C3CCc4cc(OC)c(OC)cc43)CC2)c2ccc(Cl)cc21 (centres undefined) | 18 mm | 11 mm | 25 mm | 9 mm | 13 mm | 19 mm |
